Laboratory results taken from patent publication US20130289246A1 (VANDERBILT UNIVERSITY, published 2013).

Legend:
[1] = target: T1, first-generation H1 LAH construct H1frThrST (Influenza A virus (H1)); experiment: ELISA, supernate
[2] = target: T1, first-generation H1 LAH construct …; experiment: ELISA, recombinant mAb

B1: mAb 6J24 (antibody, V domains shown)
VH: EVQLVESGGGLVQPGRSLRLSCVGSGFNFDGYAMQWVRQVPGKGLEWVSGISWHSDSTGYADSVRGRFTISRDNAKNSLYLQMDSLRPEDTAFYYCGKSIGHVGGSYRHPIDYWGQGTLVTVS
VL: DIQLTQSPSSLSASVGDRVTITCRASQGITDYLAWYQQKPGTIPKLLIYAASTLQSGVPSRFSGGGYGTDFTLTISSLQPEDVATYYCQKYNSAPLTFGGGTKVEIKR
- OD [1]: 0.189 OD

B2: mAb 3N6 (recombinant) (antibody, V domains shown)
VH: QVQLQESGPGLVKPSETLSLTCSVSGGSINYYYWSWIRQPPGKGLECIGYISDTGRTYYNPSLRSRVTISVDTSKNQFSLNLTSMTAADTAVYYCARDPTGSRQKNAFDMWGQGTMVTVS
VL: AIQMTQSPSSLSASVGDRVTITCRASQNIRSYLNWYQQKPGKAPNLLIYGTTSLESGVPSRFSGSGSGTDFTLTISSLQPEDFATYYCQQSYHTPQTFGQGTKVEIKR
- OD [2]: 3.26 OD
